# Data as given in PubChem BioAssay AID1259414 (Drosophila RNAi Screening Center, 2018).
# Screen: 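Host factors increasing or decreasing Wolbachia levels in cultured fly cells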 (primary screen)
# Cells: Drosophila JW18 cells infected with Wolbachia
# Reagent: long dsRNA against Drosophila genes, 0.25 µg dsRNA per well of a 384-well plate
# Duration: 5 days
# Conditions: cells persistently infected with Wolbachia before knock-down; no added drug
# Measured: 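Automated imaging of bacterial rRNA staining divided by host cell count, reported as plate-normalised robust z-score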
# Scale: Wolbachia per cell robust z: higher = more Wolbachia per host cell than the plate typical
# Call rule: 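Hit when robust z is 1.5 or more, or -1.5 or less, in at least two of three replicates; excludes dsRNAs with several or no targets, genes not expressed in JW18 and well A1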
# The screen tested about 24,000 reagents; below is a random part of those with a known target gene and a result. Of all reagents, about 1,210 (5%) were called active. 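Inactive calls also include excluded dsRNAs with several or no targets, genes unexpressed in JW18, and well A1, regardless of score.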 Unmarked entries are inactive. The numbers tell different reagents against one gene apart. Names joined by + are all predicted targets of the reagent. No sequences are given here.
target,dsRNA no.,"Wolbachia per cell robust z, rep 1","Wolbachia per cell robust z, rep 2","Wolbachia per cell robust z, rep 3"
CG31125,1,-0.363,-0.0866,-0.046
CG31125,2,-1.36 (active),-1.66,-1.52
CG17658,1,-0.606,-0.226,-2.15
RpS15Ab + RpS15Aa,1,2.91,2.57,-3.98
GC,1,1.3,0.612,-1.84
GC,2,-5.87 (active),-1.71,-1.51
betaNACtes6 + betaNACtes3,1,-0.0225,0.109,1.42
CG43049,1,-3.2,-0.686,-1.23
CG12538,1,0.148,-0.328,0.158
CG12538,2,-0.374,-0.573,0.0935
CG14629,1,0.161,-0.109,-1.11
CG14629,2,-0.125,0.629,1.02
Gasp,1,-0.937,-0.557,0.951
slmo + CG34179,1,1.1,-6.92,1.25
CG14411,1,-2.42,-1.21,-0.0102
CG14411,2,0.777,0.2,0.713
CG14411,3,0.81,-0.892,1.57
CG4610,1,1.15,0.32,0.996
CG4610,2,0.72,0.107,0.151
CG4610,3,-0.787,0.0537,0.513
HLH54F,1,-0.788,-0.451,-3.11
CG2926,1,0.528,0.407,-0.323
CG5323,1,-0.157,-0.317,-2.16
CG31205,1,0.933,-1.47,-0.399
CG31205,2,-0.183,0.782,0.769
Panx,1,-0.0217,0.894,0.258
wek,1,-3.12,0.4,0.168
CG13293,1,-0.0932,0.371,0.317
wdp,1,-0.712,-0.544,0.59
wdp,2,-0.219,-0.619,0.12
CG13151,1,-3.54,-0.817,0.193
E(bx),1,0.659,0.458,-2.35
E(bx),2,2.07,0.685,-0.36
E(bx),3,0.702,1.47,1.32
CG14693,1,1.05,0.42,0.534
Cap-H2,1,0.869,-0.792,0.811
CG30288,1,1.1,-1.84,0.657
CG30288,2,1.05,0.458,-0.411
CG32087,1,0.304,-0.211,-1.16
CG32087,2,0.631,1.76,2.77
Mabi,1,-1.09,0.114,0.145
Mabi,2,0.178,-1.02,1.08
Pop1,1,0.534,-6.43,0.656
Tcs5,1,-0.00871,-0.75,-1.79
tej,1,-0.151,1.97,1.29
tej,2,0.447,-0.688,-2.34
Ssl2,1,0.908,-1.65,-0.284
Ssl2,2,0.309,-1.13,0.13
Wdr59,1,-1.3,-1.02,-0.281
CG6931,1,0.24,0.00902,-0.951
mRpL10,1,-0.0228,0.286,-1.21
CG9521,1,0.394,-0.387,0.177
Cpr65Eb,1,-0.456,-3.91,-0.267
Cpr65Eb,2,-0.532,0.211,-1.42
GluRIIA,1,0.972,0.656,0.675
ttk,1,-0.439,0.991,-0.681
ttk,2,0.546,1.7,-0.898
ttk,3,1.01,0.978,0.55
cyst,1,-0.443,0.717,0.538
TyrRS-m,1,0.783,-1.61,-0.684
AstA-R1,1,0.988,0.442,1.35
AstA-R1,2,0.0563,-0.0319,-0.0546
AstA-R1,3,0.268,0.682,0.723
CG15011,1,-1.73,0.539,1.17
CG8004,1,-0.0708,0.106,-0.663
CG8004,2,-0.0674,0.739,0.871
mago,1,-1.89,-0.0758,0.0742
fng,1,-1.09,-1.14,-1.31
fng,2,0.313,-0.16,0.939
fng,3,-0.318,0.00991,-1.46
Proc-R,1,1.4,0.649,0.556
Ugt303B2,1,0.0604,-1.08,0.538
Ugt303B2,2,-0.221,-1.53,-0.834
Kah,1,-0.318,0.887,0.39
Kah,2,0.6,0.282,-0.599
Kah,3,-0.784,-0.762,-0.12
P58IPK,1,-1.19,-0.182,0.0789
P58IPK,2,0.377,-0.44,-0.734
Sfp26Ac,1,0.87,1.09,-0.326
CycY,1,-0.207,-1.96,0.307
CycY,2,0.881,-0.932,2.02
CycY,3,-0.158,-2.1,-0.863
Syt1,1,0.789,0.345,0.53
Syt1,2,-0.0317,-0.241,-0.0669
Syt1,3,-0.0137,0.33,1.07
Syt1,4,-6.68,0.244,-0.208
Syt1,5,1.07,0.942,-0.259
Syt1,6,0.509,-1.67,-5.56
